Compound potency records, mixed from different reports. Data source: NIAID ChemDB in PubChem.

Shared fields: whole-cell or culture tests; agent: Mycobacterium tuberculosis

MIC50, MIC90 and the like: level of inhibition, or share of isolates inhibited.

compound | strain or isolate | cell line | read by | measure | tested at | value
COc1cc(Br)ccc1CO/N=C1/CCN(c2c(F)cc3c(=O)c(C(=O)O)cn(C4CC4)c3c2OC)CC1N | H37Rv |  | resazurin | MIC |  | 16 µg/mL
CCOc1ccc2cc(-n3nncc3COc3nc(-c4cccnc4)sc3C=O)c(=O)oc2c1 | H37Rv |  | resazurin | MIC |  | 26.29 µM
CCN1CC(c2cccs2)=NC(C#N)=C1C#N | H37Rv |  | broth dilution / visual reading | MIC |  | 12.5 µg/mL
Cc1ccc(N=C=O)cc1[N+](=O)[O-] | H37Rv |  | BACTEC | inhibition | 12.5 µg/mL | 49%
CC1COc2c(N3CCN(C)CC3)c(F)cc3c(=O)c(C(=O)O)cn1c23 | 188 strains |  |  | MIC90 |  | 1 µg/mL
CCN1CC(c2ccccc2)NC(C#N)=C1C#N | H37Rv |  | broth dilution / visual reading | MIC |  | 1.5 µg/mL
COc1c(N2CC/C(=N/OCc3ccc4c(c3)OCO4)C(N)C2)c(F)cc2c(=O)c(C(=O)O)cn(C3CC3)c12 | H37Rv |  | resazurin | MIC |  | 4 µg/mL
CC(C)=CCC/C(C)=C/C=N/NC(=N)N | H37Rv |  | resazurin | MIC bound |  | >6.25 µg/mL
CCN1C(C#N)=C(C#N)N=C(c2ccsc2)[C@@H]1/C=C/c1ccccc1 | H37Rv |  | broth dilution / visual reading | MIC |  | 12.5 µg/mL
O=[N+]([O-])c1ccc(C2=CC(c3cccc(Oc4ccccc4)c3)NC(=S)N2)cc1 | H37Rv |  | resazurin | MIC |  | 0.68 µg/mL
O=C1CN(/N=C/c2ccc([N+](=O)[O-])o2)C(=O)N1 | H37Rv |  | turbidity | MIC |  | 50 µg/mL
O=C(OCCNc1ccccc1)Oc1c(Cl)cc(Cl)c(Cl)c1[N+](=O)[O-] | H37Rv |  | BACTEC | MIC bound |  | ≤128 µg/mL
CCCC1CCc2c(sc(N)c2C#N)C1 | H37Rv |  | resazurin | MIC |  | 200 µM
CN(C)c1cc(NC(=O)CNC(C)(C)C)c(O)c2c1C[C@H]1C[C@H]3[C@H](N(C)C)C(=O)C(C(N)=O)=C(O)[C@@]3(O)C(=O)C1=C2O | H37Rv |  | turbidity | MIC |  | 6.3 µg/mL
CCN1CC(c2ccsc2)NC(C#N)=C1C#N | H37Rv |  | broth dilution / visual reading | MIC |  | 12.5 µg/mL
C[C@H](O)[C@H]1C(=O)N2C(C(=O)O)=C(S[C@@H]3CN[C@H](C(=O)N(C)C)C3)[C@H](C)[C@H]12 | H37Rv |  | turbidity | MIC |  | 6.3 µg/mL
CNC(=O)c1n[nH]c(C)c1[N+](=O)[O-] | H37Rv |  | BACTEC | inhibition | 12.5 µg/mL | -7%
O=Cc1sc(-c2ccccc2)nc1OCc1cnnn1-c1cc2ccc(O)cc2oc1=O | H37Rv |  | resazurin | MIC |  | 56 µM
O=C(/C=C/c1ccc(O)cc1)c1ccc(O)cc1O | H37Rv |  | BACTEC / radiometric | MIC |  | 25 µg/mL
CCN1CC(c2ccccc2)=NC(C#N)=C1C#N | H37Rv |  | broth dilution / visual reading | MIC |  | 12.5 µg/mL
COc1ccc(-c2cnc(C(N)=O)c(=O)[nH]2)cc1 | H37Rv |  | BACTEC | MIC |  | ≥12.5 µg/mL
C[C@]1(COc2ccc(N3CCN(C/C=C/c4ccc(Cl)cc4Cl)CC3)cc2)Cn2cc([N+](=O)[O-])nc2O1 | H37Rv |  |  | MIC |  | <0.12 µg/mL
Cc1cc2c(cc1C)[n+](=O)c(C(=O)C/C(=N\NC(=O)c1ccccc1O)C(=O)Nc1ccccc1C(C)C)c(C)n2[O-] | H37Rv |  | BACTEC | inhibition | 12.5 µg/mL | 14%
COc1ccc(C(=O)/C=C/c2ccccc2)c(OC)c1 | H37Rv |  | BACTEC / radiometric | MIC |  | 12.5 µg/mL
NC1=NC(c2cccc(Oc3ccccc3)c2)C=C(c2ccccc2)N1 | H37Rv |  | resazurin | inhibition | 6.25 µg/mL | 82%
Clc1nccc2[nH]c(CC3CCCCC3)c(CN3CCOCC3)c12 | H37Rv |  | resazurin | EC50 |  | >50 µg/mL
O=C(/C=C/c1c[nH]c2ccccc12)c1ccccc1Cl | H37Rv |  | BACTEC / radiometric | MIC |  | >100 µg/mL
COc1c(N2CC/C(=N/OCc3ccc(F)cc3)C(N)C2)c(F)cc2c(=O)c(C(=O)O)cn(C3CC3)c12 | H37Rv |  | resazurin | MIC |  | 4 µg/mL
CC(=O)NC(ON1C(=O)COc2ccccc21)C(Cl)(Cl)Cl | H37Rv |  | BACTEC | MIC bound |  | >12.5 µg/mL
O=[N+]([O-])c1ccc(C=Nc2ccc(-c3nnc(SCc4ccc(Cl)cc4Cl)n3-c3ccccc3)cc2)o1 | H37Rv |  |  | EC50 |  | <6.25 µg/mL
NC[C@H]1O[C@H](O[C@H]2[C@H](O)[C@@H](O[C@H]3O[C@H](CO)[C@@H](O)[C@H](N)[C@H]3O)[C@H](N)C[C@@H]2N)[C@H](N)C[C@@H]1O | H37Rv |  | turbidity | MIC |  | 6.3 µg/mL
CCOC(=O)c1cc(-c2ccc(Cl)cc2)n(CCC(=O)N/N=C/c2[nH]c(C)c(C(C)=O)c2C)c1C | H37Rv |  |  | MIC |  | >6.25 µg/mL
COc1ccc2nc(C)c3c(c2c1)C(=O)N(CCC[N+]1([O-])CC[N+]([O-])(CCCN2C(=O)c4c(c5cc(OC)ccc5[n+]([O-])c4C)C2=O)CC1)C3=O | H37Rv |  | BACTEC | MIC bound |  | >12.5 µg/mL
CCn1cc(C(=O)O)c(=O)c2cc(F)c(N3CCNCC3)cc21 | CIPT 140010072 |  |  | MIC |  | 10 µg/mL
CCOc1ccc2cc(-n3nncc3COc3nc(-c4ccccn4)sc3C=O)c(=O)oc2c1 | H37Rv |  | resazurin | MIC |  | 26.29 µM
CCOC(=O)c1cc(-c2ccc(Cl)cc2)n(CC(=O)N/N=C/c2ccccc2O)c1C | H37Rv |  |  | inhibition | 6.25 µg/mL | 96%
CO[C@H]1/C=C/O[C@@]2(C)Oc3c(C)c(O)c4c(O)c(c(/C=N/N5CCN(C)CC5)c(O)c4c3C2=O)NC(=O)/C(C)=C\C=C\[C@H](C)[C@H](O)[C@@H](C)[C@@H](O)[C@@H](C)[C@H](OC(C)=O)[C@@H]1C | CSU87 |  | broth dilution / visual reading | MIC |  | >32 µg/mL
C[C@H]1c2cccc(O)c2C(O)=C2C(=O)[C@]3(O)C(O)=C(C(N)=O)C(=O)[C@@H](N(C)C)[C@@H]3[C@@H](O)[C@@H]21 | H37Rv |  | turbidity | MIC |  | 6.3–50 µg/mL
C[C@]1(COc2ccc(N3CCC(Nc4ccc(OC(F)(F)F)cc4)CC3)cc2)Cn2cc([N+](=O)[O-])nc2O1 | H37Rv |  |  | MIC |  | 0.024 µg/mL
NNC(=O)c1ccncc1 | Isolate UT1998 (katG S315T mutation) |  |  | MIC |  | 0.75 µg/mL
CN(Cc1cnc2nc(N)nc(N)c2n1)c1ccc(C(=O)N[C@@H](CCC(=O)O)C(=O)O)cc1 | H37Rv |  | turbidity | MIC |  | ≥200 µg/mL
CC1OC(CC(=O)O)Cc2c1c(O)c1c(O)cc(-c3cc(=O)c4c(=O)c5c(c(=O)c=4c3=O)CC(CC(=O)O)OC5C)c(O)c1c2O | H37Rv |  | BACTEC | MIC bound |  | >12.5 µg/mL
CC[C@H]1OC(=O)[C@H](C)[C@@H](O[C@H]2C[C@@](C)(OC)[C@@H](O)[C@H](C)O2)[C@H](C)[C@@H](O[C@@H]2O[C@H](C)C[C@H](N(C)C)[C@H]2O)[C@](C)(O)C[C@@H](C)CN(C)[C@H](C)[C@@H](O)[C@]1(C)O | H37Rv |  | turbidity | MIC |  | >400 µg/mL
COc1c(N2CCNC(C)C2)c(F)cc2c(=O)c(C(=O)O)cn(C3CC3)c12 | 23 isolates |  |  | MIC50 |  | 0.031 µg/mL
COc1ccc(C(=O)/C=C/c2ccc(O)cc2)c(OC)c1 | H37Rv |  | BACTEC / radiometric | MIC |  | 100 µg/mL
O=C(CCC(F)(F)F)N1CCC(N2N=C(c3ccccc3)CC2=O)CC1 | H37Rv-GFP | Macrophages | GFP / fluorescence | EC50 |  | >5 µM
COc1ccc(CN(C)CCCC(C#N)(c2ccc(OC)c(OC)c2)C(C)C)cc1OC | H37Rv |  | resazurin | MIC99 |  | >1000 µM
CCN1C(C#N)=C(C#N)N=C(c2ccccc2)C1/C=C/c1ccc(-c2ccccc2)cc1 | H37Rv |  | broth dilution / visual reading | MIC |  | 12.5 µg/mL
O=C(/C=C/c1c[nH]c2ccccc12)c1ccc(Cl)cc1 | H37Rv |  | BACTEC / radiometric | MIC |  | >100 µg/mL
Nc1ccc(-c2nnc(SCc3ccccc3)n2-c2ccccc2)cc1 | H37Rv |  |  | inhibition | 6.25 µg/mL | <50%
NNC(=O)c1ccncc1 | Isolate 2237 |  |  | MIC |  | 0.125 µg/mL
COC(=O)/C(N=Nc1cccc(C)c1)=C(\C)O | H37Rv |  | resazurin | MIC bound |  | >6.25 µg/mL
O=C1CC(c2ccc(O)cc2)Oc2cc(O)ccc21 | H37Rv |  | BACTEC / radiometric | MIC |  | 25 µg/mL
O=C(NNC(=S)Nc1ccc(S(=O)(=O)N2CCCCC2)cc1)c1ccncc1 | H37Rv |  | resazurin | MIC |  | 0.78 µg/mL
CCn1cc(C(=O)O)c(=O)c2cc(F)c(N3CCNCC3)nc21 | Isolate 870729 |  |  | MIC |  | 5 µg/mL
COc1ccc(OCC2CCN(c3ccc(OC[C@@]4(C)Cn5cc([N+](=O)[O-])nc5O4)cc3)CC2)c(Cl)c1 | H37Rv |  |  | MIC |  | 0.012 µg/mL
NC1=NC(c2cccc(Oc3ccccc3)c2)C=C(c2ccc(Cl)cc2Cl)N1 | H37Rv |  | resazurin | MIC |  | 9.094 µg/mL
O=Cc1sc(-c2ccncc2)nc1OCc1cnnn1-c1cc2ccc(O)cc2oc1=O | H37Rv |  | resazurin | MIC |  | 112 µM
O=C1C2=C(Nc3cc(Cl)ccc3N2)OC1c1ccc(C2OC3=C(Nc4ccc(Cl)cc4N3)C2=O)cc1 | H37Rv |  | BACTEC | inhibition | 12.5 µg/mL | 12%
CCN1C(C#N)=C(C#N)N=C(c2cccs2)C1/C=C/c1ccc(-c2ccccc2)cc1 | H37Rv |  | broth dilution / visual reading | MIC |  | 12.5 µg/mL
CC(=O)NN1C(=O)c2ccccc2C1=O | H37Rv |  | BACTEC | MIC bound |  | >12.5 µg/mL
Cc1ccc(C2=CC(c3cccc(Oc4ccccc4)c3)N=C(N)N2)cc1 | H37Rv |  | resazurin | inhibition | 6.25 µg/mL | 71%
CCC1(C)NN=c2s/c(=C\c3ccc(OC)cc3)c(=O)n2N1 | H37Rv |  | BACTEC | inhibition | 12.5 µg/mL | 8%
COc1ccc(OC)c(CO/N=C2/CCN(c3c(F)cc4c(=O)c(C(=O)O)cn(C5CC5)c4c3OC)CC2N)c1 | H37Rv |  | resazurin | MIC |  | 8 µg/mL
[B-]1n2ccc[n+]2[B-]n2ccc[n+]21 | H37Rv |  | BACTEC | inhibition | 128 µg/mL | 97%
Nc1ccc(-c2nnc(SCc3ccc(Cl)cc3Cl)n2-c2ccccc2)cc1 | H37Rv |  |  | inhibition | 6.25 µg/mL | 50–59%
COc1cc(OC)c(C(=O)C(Br)C(Br)c2ccccc2)cc1Br | H37Rv |  | BACTEC / radiometric | MIC |  | 25 µg/mL
O=C(O)c1sc(-c2ccccc2)nc1OCc1cnnn1-c1cc2ccc(O)cc2oc1=O | H37Rv |  | resazurin | MIC |  | 27.03 µM
CCN1C(C#N)=C(C#N)N=C(c2cccs2)[C@@H]1/C=C/c1ccccc1 | H37Rv |  | broth dilution / visual reading | MIC |  | 12.5 µg/mL
C[C@]1(COc2ccc(N3CCC(Cc4cccc(OC(F)(F)F)c4)CC3)cc2)Cn2cc([N+](=O)[O-])nc2O1 | H37Rv |  |  | MIC |  | 0.39 µg/mL
CCN(CCO)CCNc1ccc(CO)c2sc3cc(Cl)ccc3c(=O)c12 | H37Rv |  | BACTEC | inhibition | 12.5 µg/mL | 100%
COc1ccc(C(=O)/C=C/c2ccc(OC(=O)c3ccccc3)cc2)c(OC)c1 | H37Rv |  | BACTEC / radiometric | MIC |  | 25 µg/mL
NNC(=O)c1ccncc1 | H37Rv |  |  | MIC |  | 0.05 µg/mL
CCOc1ccc2cc(-n3nncc3COc3nc(-c4ccncc4)sc3C=O)c(=O)oc2c1 | H37Rv |  | resazurin | MIC |  | 26.28 µM
CN(CCO)/N=N/c1nc[nH]c1C(N)=O | H37Rv |  | BACTEC | MIC |  | ≥12.5 µg/mL
CC(=O)n1cc(/C=N\NC(=O)c2ccncc2)c2ccccc21 | H37Rv |  |  | inhibition | 6.25 µg/mL | 98%
CC1(O)Oc2c(cc(C(C)(C)C)cc2C(C)(C)C)C1=O | H37Rv |  | BACTEC | MIC bound |  | >12.5 µg/mL
Cc1ccc(-n2c(SCc3ccccc3)nnc2-c2ccc(N)cc2)cc1 | H37Rv |  |  | EC50 |  | <6.25 µg/mL
Nc1nc2c(c(-c3ccc(Cl)cc3)n1)CN(CCC(=O)O)C2=O | H37Rv |  | BACTEC | MIC bound |  | >12.8 µg/mL
NC1=NC(c2cccc(Oc3ccccc3)c2)C=C(c2ccc(F)cc2)N1 | H37Rv |  | resazurin | MIC |  | 1.49 µg/mL
CCC[CH2][Sn]([Cl])([CH2]CCC)[S]C(=S)NCCNC(=S)[S][Sn]([Cl])([CH2]CCC)[CH2]CCC | H37Rv | VERO |  | MIC |  | 0.78 µg/mL
Nc1ccc2cc(-n3nncc3COc3nc(-c4ccncc4)sc3C=O)c(=O)oc2c1 | H37Rv |  | resazurin | MIC |  | 27.99 µM

Again, the opening 4 rows:

compound	strain or isolate	cell line	read by	measure	tested at	value
COc1cc(Br)ccc1CO/N=C1/CCN(c2c(F)cc3c(=O)c(C(=O)O)cn(C4CC4)c3c2OC)CC1N	H37Rv		resazurin	MIC		16 µg/mL
CCOc1ccc2cc(-n3nncc3COc3nc(-c4cccnc4)sc3C=O)c(=O)oc2c1	H37Rv		resazurin	MIC		26.29 µM
CCN1CC(c2cccs2)=NC(C#N)=C1C#N	H37Rv		broth dilution / visual reading	MIC		12.5 µg/mL
Cc1ccc(N=C=O)cc1[N+](=O)[O-]	H37Rv		BACTEC	inhibition	12.5 µg/mL	49%

MIC bound: limit read from a one-dose screen. An empty or dashed field is not shown. Percent inhibition refers to the dose given; in toxicity tests it is the harm to the cells. ECn is the concentration giving n% inhibition of infection, replication or growth. Rows are shuffled and stem from different studies. Two numbers with a dash give a range or band.